PubChem BioAssay AID504761, Drosophila RNAi Screening Center | 2011
The deposit covers about 22,000 reagents; below is a random part of those with a known target gene and a result. In the full data, 116 (0.52%) are marked active. 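Calls depend on retest data that are not deposited; infection was ranked per plate without normalising between plates; the unit of the infection score is not given.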 Raw values are not corrected between plates. The numbers tell different reagents against one gene apart. Not all columns of the deposit are shown. The record does not give: the amount of reagent, the time to read-out.

Test: 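Fly genes whose silencing reduces dengue virus type 2 infection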 (primary screen)
Cells: D.Mel-2 cells from Drosophila
Reagents: long dsRNA against Drosophila genes
Challenge: infection with dengue virus type 2; dose and infection time not stated
Measurement: 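Per well on two replicate plates, imaging gave the percent of cells positive for viral envelope protein, ranked by infection, and a nuclear count of cells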
Scale: infection score: higher = more virus-infected cells; cell count: higher = more cells in the well
Call rule: 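Low infection ranks in the two replicates (chance level up to 0.065) followed by a retest with a 1.5-fold or larger significant decrease, p below 0.05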
Meaning of the calls: active = confirmed: knock-down lowers infection; inactive = not picked or not confirmed

With CG31928, what does the deposit list?
infection score, replicate 1: 2.73; cell count, replicate 1: 6956; call: inactive

With CG17109 #1, what was measured?
infection score, replicate 1: 3.1; cell count, replicate 1: 6803; call: inactive

For CG17109 #2, how do the results read?
infection score, replicate 1: 7.44; cell count, replicate 1: 6384; call: inactive

How did the screen score etaTry #1?
infection score, replicate 1: 9.75; cell count, replicate 1: 5949; call: inactive

What did the screen give for etaTry #2?
infection score, replicate 1: 15.9; cell count, replicate 1: 5551; call: inactive

Part of the list above in another layout.
target gene	reagent no.	infection score, replicate 1	cell count, replicate 1	call
CG17109	2	7.44	6384	inactive
etaTry	1	9.75	5949	inactive

The listing continues:
With Cdc14 #1, what does the deposit list?
infection score, replicate 1: 2.96; cell count, replicate 1: 6410; call: inactive

How did the screen score Cdc14 #2?
infection score, replicate 1: 4.67; cell count, replicate 1: 5310; call: inactive

Which result is listed for CG30222 #1?
infection score, replicate 1: 4.43; cell count, replicate 1: 6837; call: inactive

How did the screen score CG30222 #2?
infection score, replicate 1: 2.64; cell count, replicate 1: 6882; call: inactive

With CG5767 #1, what was measured?
infection score, replicate 1: 2.99; cell count, replicate 1: 6752; call: inactive

With CG5767 #2, what does the deposit list?
infection score, replicate 1: 19.6; cell count, replicate 1: 6001; call: inactive

For unc-13-4A #1, what does the deposit list?
infection score, replicate 1: 6.35; cell count, replicate 1: 6409; call: inactive

For unc-13-4A #2, what does the deposit list?
infection score, replicate 1: 0.68; cell count, replicate 1: 6310; call: inactive

For unc-13-4A #3, what was measured?
infection score, replicate 1: 1.88; cell count, replicate 1: 6597; call: inactive
